Pooled drug test results. Numbers come from NIAID ChemDB, via PubChem.

Common to all: enzyme or target tests; organism: HIV-1; protein: Reverse transcriptase; read-out: inhibition

Lines come from different laboratories, so protocols vary. Blank or dashed fields: not listed here. Percent inhibition refers to the dose given; in toxicity tests it is the harm to the cells.

structure | strain or isolate | method | tested at | value
O=C(NCCc1ccccc1)Nc1ccn[nH]1 | - | nucleotide incorporation | 10 µg/mL | 38%
CCCN1C(=O)c2ccnnc2N(C2CC2)c2ccc(C)cc21 | - | - | 33 µM | 19%
CCCN1C(=O)c2ccnnc2Oc2ccc(C)cc21 | - | ELISA | 33 µM | 26%
CC(C)(C)CNc1cccnc1N1CCN(C(=O)c2cc3ccccc3[nH]2)CC1 | - | nucleotide incorporation | 100 µM | 42%
CC(C)OC(=O)N1c2ccccc2C=CC1C#N | - | nucleotide incorporation | 50 µM | 89.1%
Nc1ncnc2c1ncn2C1OC(COP(=O)(O)OC2CC(COP(=O)(O)OC3C(O)C(CO)OC3n3cnc4c(N)ncnc43)OC2n2cnc3c(N)ncnc32)CC1O | IIIB | - | 10 µM | 13%
CC(C)OC(=O)N1c2ccccc2C=CC1C(N)=O | - | nucleotide incorporation | 50 µM | ≤30%
CCN1C(=O)c2cc(Cl)nnc2N(CC)c2ccccc21 | - | - | 330 µM | 3%
N#CC1C=Cc2ccccc2N1S(=O)(=O)S(=O)(=O)c1ccccc1 | - | nucleotide incorporation | 50 µM | 47.8%
Nc1ncnc2c1ncn2[C@@H]1O[C@H](COP(=O)([O-])O)[C@@H](O)[C@H]1OP(=O)([O-])OC[C@H]1O[C@@H](n2cnc3c(N)ncnc32)[C@H](OP(=O)([O-])OC[C@@H]2C[C@@H](O)[C@H](n3cnc4c(N)ncnc43)O2)[C@@H]1O | IIIB | - | 10 µM | 25%
O=C(NCCc1ccccc1)Nc1nc2c(Cl)cccc2s1 | - | nucleotide incorporation | 1 µg/mL | 6%
CC(=O)Nc1ccc2[nH]c(C(=O)N3CCN(c4ncccc4NC(C)C)CC3)cc2c1 | - | nucleotide incorporation | 100 µM | 86%
CCCN1C(=O)c2ccnnc2N(C2CC2)c2ccccc21 | - | - | 33 µM | 46%
O=C1NC(c2c[nH]c3ccc(O)cc23)=C/C1=C1\C(=O)NC2C=CC=CC12 | - | RT activity / ELISA | 1000 µM | 97.14%
CCNc1cccnc1N1CCN(Cc2cc(C(C)C)c(O)c(C(C)C)c2)CC1 | - | nucleotide incorporation | 100 µM | 0%
C=C(C)OC(=O)N1c2ccccc2C=CC1C#N | - | nucleotide incorporation | 50 µM | ≤30%
CC(C)Nc1cccnc1N(C)C1CCC(N(C)C(=O)c2cc3ccccc3[nH]2)CC1 | - | nucleotide incorporation | 100 µM | 4%
CN1C(=O)c2cc(-n3ccnc3)nnc2N(C2CC2)c2ccccc21 | - | - | 33 µM | 0%
Nc1ncnc2c1ncn2[C@@H]1O[C@H](COP(=O)(O)O[C@@H]2[C@H](O)[C@@H](COP(=O)(O)O[C@@H]3[C@H](O)[C@@H](CO)O[C@H]3n3cnc4c(N)ncnc43)O[C@H]2n2cnc3c(N)ncnc32)[C@@H](O)[C@H]1O | IIIB | - | 10 µM | 18%
C/C1=C\C=C\C2(C)C=C(CO[C@H]3O[C@H](CO)[C@H](O)[C@H](O)[C@H]3O)C(C)CC23OC([O-])C(C3=O)C(O)/C=C/C2(C)C=C(C=O)C(C)CC23OC([O-])C(C3=O)C(O)/C(C)=C/C=C/C2C=C(CO[C@H]3O[C@H](CO)[C@H](O)[C@H](O)[C@H]3O)C(C)CC23OC([O-])C(C3=O)C(O)/C=C/C2(C)C=C(C=O)C(C)CC23OC([O-])C(C3=O)C1O | IIIB | RT activity | 0.16 µg/mL | 30.9%
CC(C)Nc1cccnc1N(C)CCCCN(C)C(=O)c1cc2ccccc2[nH]1 | - | nucleotide incorporation | 100 µM | 91%
CCCCOC(=O)N1c2ccc([N+](=O)[O-])cc2C=CC1C#N | - | nucleotide incorporation | 50 µM | ≤30%
Cc1ccc2c(c1)N(C(C)C)C(=O)c1ccnnc1O2 | - | ELISA | 330 µM | 88%
CC(C)Nc1cccnc1OCCOC(=O)c1cc2ccccc2[nH]1 | - | nucleotide incorporation | 100 µM | 67%
CCOC(=O)CN1C(=O)c2ccnnc2Oc2cc(C)ccc21 | - | ELISA | 330 µM | 49%
CCOC(=O)Nc1ccc2c(c1)C=CC(C#N)N2C(=O)OCC | - | nucleotide incorporation | 50 µM | ≤30%
Cc1nc(NC(=O)NCCc2ccccc2)sc1C | - | nucleotide incorporation | 10 µg/mL | 38%
Nc1ncnc2c1ncn2[C@@H]1O[C@H](COP(=O)([O-])O[C@@H]2C[C@@H](COP(=O)([O-])O[C@@H]3C[C@@H](COP(=O)([O-])O)O[C@H]3n3cnc4c(N)ncnc43)O[C@H]2n2cnc3c(N)ncnc32)C[C@H]1O | IIIB | - | 10 µM | 28%
COc1ccc2c(c1)C=CC(C#N)N2C(=O)c1ccco1 | - | nucleotide incorporation | 50 µM | 40.5%
CCOc1ccccc1CCNC(=S)Nc1nccs1 | - | nucleotide incorporation | 1 µg/mL | 30%
Cc1ccc2c(c1)N(CCCCl)C(=O)c1ccnnc1O2 | - | ELISA | 330 µM | 52%
O=C(NCCc1ccccc1)Nc1ccc(Cl)cc1 | - | nucleotide incorporation | 1 µg/mL | 29%
N#CC1C=Cc2ccccc2N1C(=O)c1cccnc1Nc1cccc([N+](=O)[O-])c1 | - | nucleotide incorporation | 50 µM | ≤30%

Repeating the first 4 entries:

structure | strain or isolate | method | tested at | value
O=C(NCCc1ccccc1)Nc1ccn[nH]1 | - | nucleotide incorporation | 10 µg/mL | 38%
CCCN1C(=O)c2ccnnc2N(C2CC2)c2ccc(C)cc21 | - | - | 33 µM | 19%
CCCN1C(=O)c2ccnnc2Oc2ccc(C)cc21 | - | ELISA | 33 µM | 26%
CC(C)(C)CNc1cccnc1N1CCN(C(=O)c2cc3ccccc3[nH]2)CC1 | - | nucleotide incorporation | 100 µM | 42%